Pooled drug test results. Numbers come from NIAID ChemDB, via PubChem.

Common to all: growth or infection tests; agent: Herpes simplex virus 2; read by: cytopathic effect; endpoint: EC50

ECn: concentration that inhibits the pathogen or its effect by n%. Lines come from different laboratories, so protocols vary. Two numbers with a dash give a range or band. Blank or dashed fields: not listed here.

| smiles | cell line | strain | result |
|---|---|---|---|
| CCc1cn([C@H]2C[C@H](O)[C@@H](CO)O2)c(=O)[nH]c1=O | PRK | G | 0.07 µg/mL |
| OC[C@H]1O[C@@H](c2cc(I)c(F)cc2F)C[C@@H]1O | E6SM | 196 | >400 µg/mL |
| Nc1ccn(CCCC(O)CF)c(=O)n1 | ESM | G | >400 µg/mL |
| Nc1nc2c(ncn2COCCO)c(=O)[nH]1 | HEP-2 | MS | 0.94 µg/mL |
| O=c1[nH]c(=O)n([C@H]2S[C@H](CO)[C@@H](O)[C@@H]2F)cc1/C=C/Br | - | MS | >27 µg/mL |
| CO[C@H](CO)[C@@H](O)CCn1cnc2c(N)ncnc21 | E6SM | LYONS | >400 µg/mL |
| O=c1[nH]c(=O)n([C@@H]2S[C@H](CO)[C@@H](O)[C@@H]2F)cc1I | - | MS | 0.32 µg/mL |
| O=c1[nH]c(=O)n([C@H]2C[C@H](O)[C@@H](CO)O2)cc1/C=C/Br | PRK | G | <2.3 µg/mL |
| CC=NC(=N)c1nc(-c2cccc(C)c2)n(C/C=C/c2ccccc2)n1 | E6SM | G | >4 µg/mL |
| Nc1nc(F)nc2c1ncn2[C@H]1S[C@H](CO)[C@@H](O)[C@@H]1F | - | MS | >27 µg/mL |
| Nc1ncnc2c1ncn2CC[C@H](O)CCO | E6SM | 196 | >400 µg/mL |
| C=C(N=CC)c1nc(-c2ccc(C)cc2)n([C@@H]2O[C@H](CO)[C@@H](O)[C@H]2O)n1 | E6SM | G | >40 µg/mL |
| CCCCCCCC/C=C/CCCCCCCC(=O)O | HEL | HS-47 (TK+) | >100 µM |
| Nc1nc2c(ncn2[C@@H]2C=C[C@H](CO)[C@@H](O)C2)c(=O)[nH]1 | E6SM | LYONS | 0.07 µg/mL |
| O=c1[nH]c(=O)n([C@@H]2O[C@H](CO)[C@@H](O)[C@@H]2F)cc1I | PRK | G | <0.02 µg/mL |
| Cc1cn([C@@H]2O[C@H](COP(=O)(O)O)[C@@H](O)[C@@H]2O)c(=O)[nH]c1=O | HELF | UW-268 | 3.2 µg/mL |
| OC[C@H]1O[C@@H](c2cc(Cl)c(F)cc2F)C[C@@H]1O | E6SM | 196 | >400 µg/mL |
| O=c1[nH]c(=O)n([C@H]2C[C@H](O)[C@@H](CO)O2)cc1/C=C/Br | HEL | HS-47 (TK+) | >150 µM |
| Nc1cc([C@H]2C[C@H](O)[C@@H](CO)O2)c(F)cc1F | E6SM | LYONS | >400 µg/mL |
| O=c1[nH]c(=O)n([C@H]2C[C@H](O)[C@@H](CO)O2)cc1I | PRK | G | <0.91 µg/mL |
| O=c1[nH]c(=O)n([C@H]2C[C@H](O)[C@@H](CO)O2)cc1I | PRK | G | 0.2 µg/mL |
| Nc1nc2c(ncn2COCCO)c(=O)[nH]1 | HFF | G | 0.5 µg/mL |
| Nc1nc2c(ncn2COC(CO)CO)c(=O)[nH]1 | HEL | HS-44 (TK-) | 57 µM |
| CO[C@H](CO)[C@@H](O)CCn1cnc2c(=O)[nH]c(N)nc21 | E6SM | LYONS | >400 µg/mL |
| OC[C@H]1O[C@@H](c2cc(C(F)(F)F)c(F)cc2F)C[C@@H]1O | E6SM | LYONS | >400 µg/mL |
| Cc1cn([C@H]2S[C@H](CO)[C@@H](O)[C@@H]2F)c(=O)[nH]c1=O | - | MS | >27 µg/mL |
| Cc1cn(C(CF)CCCO)c(=O)[nH]c1=O | ESM | G | >400 µg/mL |
| O=c1[nH]c(=O)n([C@H]2C[C@H](O)[C@@H](CO)O2)cc1/C=C/Br | E6SM | LYONS | >80 µg/mL |
| OC[C@H]1O[C@@H](c2cc(Br)c(F)cc2F)C[C@@H]1O | E6SM | LYONS | >400 µg/mL |
| O=c1[nH]c(=O)n([C@@H]2S[C@H](CO)[C@@H](O)[C@@H]2F)cc1CCO | - | MS | >27 µg/mL |
| CO[C@H](CO)[C@@H](O)CCn1cc(C)c(=O)[nH]c1=O | E6SM | G | >400 µg/mL |
| Nc1nc(=O)n(C2CC(O)C(CO)O2)cc1CCCl | PRK | 196 | 8.5 µg/mL |
| Nc1ncnc2c1ncn2C[C@@H](CO)OCP(=O)(O)O | PRK | G | 1–3 µg/mL |
| Nc1nc(F)nc2c1ncn2[C@@H]1S[C@H](CO)[C@@H](O)[C@@H]1F | - | MS | 3 µg/mL |
| Nc1nc(=O)c(/C=C/Br)cn1[C@H]1C[C@H](O)[C@@H](CO)O1 | PRK | 196 | 300 µg/mL |
| O=c1[nH]c(=O)n(C2CC(O)C(CO)O2)cc1CCCCl | PRK | 196 | 17 µg/mL |
| Nc1ncnc2c1ncn2[C@H]1S[C@H](CO)[C@@H](O)[C@@H]1F | - | MS | >27 µg/mL |
| CC=NC(=N)c1nc(-c2cccc(OC)c2)n(Cc2ccccc2)n1 | E6SM | G | >10 µg/mL |
| O=c1[nH]c(=O)n([C@H]2C[C@H](O)[C@@H](CO)O2)cc1/C=C/Br | PRK | LYONS | 7 µg/mL |
| Cc1cc([C@@H]2C[C@H](O)[C@@H](CO)O2)c(F)cc1Cl | E6SM | LYONS | >400 µg/mL |
| C=C(N=CC)c1nc(-c2ccc(C)cc2)n(C2O[C@H](CO)[C@@H](O)[C@H](O)[C@H]2O)n1 | E6SM | G | >200 µg/mL |
| CCc1cn([C@H]2C[C@H](O)[C@@H](CO)O2)c(N)nc1=O | PRK | G | >400 µg/mL |
| Nc1nc2c(ncn2CCCC(O)CF)c(=O)[nH]1 | ESM | G | >400 µg/mL |
| O=c1[nH]c(=O)n([C@H]2C[C@H](O)[C@@H](COP(=O)(O)O)O2)cc1/C=C/c1ccccc1 | PRK | 196 | 70 µg/mL |
| O=c1[nH]c(=O)n([C@@H]2S[C@H](CO)[C@@H](O)[C@@H]2F)cc1/C=C/Br | - | MS | 9 µg/mL |

The first 4 rows once more:

smiles	cell line	strain	result
CCc1cn([C@H]2C[C@H](O)[C@@H](CO)O2)c(=O)[nH]c1=O	PRK	G	0.07 µg/mL
OC[C@H]1O[C@@H](c2cc(I)c(F)cc2F)C[C@@H]1O	E6SM	196	>400 µg/mL
Nc1ccn(CCCC(O)CF)c(=O)n1	ESM	G	>400 µg/mL
Nc1nc2c(ncn2COCCO)c(=O)[nH]1	HEP-2	MS	0.94 µg/mL